Reference: US7262151B2, “Methods and compositions for production of lipo-chito oligosaccharides by rhizobacteria” (McGill University, priority 2001, dated 2007)

Columns and labels:
Test in all cases: LCO production by B. japonicum USDA 110 (butanol extraction, HPLC)
Assay type in all cases: cell-based, Bradyrhizobium japonicum
[1] = tested on: B. japonicum USDA 110; settings: factor levels 0 and 20 μM
Protocol: (§1) Cultures of B. japonicum (strain USDA 110) were grown at 28° C. in 600 ml of sterile yeast mannitol medium (YEM) at pH 6.8. The culture was shaken at 150 rpm until an OD620 of 0.4 to 0.6 was achieved (4 to 6 days). When the culture reached this stage, it was divided equally into four flasks (150 mL) and specific concentrations of JA and genistein were added to the cultures.
(§2) One hundred and fifty mL of each culture were extracted with 40 mL of the HPLC-grade butanol (Fisher Science Ltd., 112 Colonnade Road, Nepean, ON, Canada) by shaking together for 5 minutes. The two phases were then allowed to separate by leaving the mixture to stand overnight. The upper layer (butanol) was collected with a glass pipette and 25 mL were placed in a 250 ml evaporation flask. LCO extract solutions were stored at 4° C. until evaporation. This step was conducted at 80° C. with a Yamato RE 500 Rotary Evaporator (Yamato Scientific American Inc., Orangeburge, N.Y., USA). The butanol phase was evaporated down to 2 to 3 mL. The resulting light brown material was dissolved in 4 ml of 18% acetonitrile and stored in the dark at 4° C. in a glass tube sealed with parafilm.
For HPLC analysis we used a Vydac C18 reversed—phase column (VYDAC, Hesperia, Calif., USA) with a flow rate of 1.0 mL/min and a Vydac guard column (VYDAC, Hesperia, Calif., USA). We used at least 10 min. of isocratic run with 18% acetonitrile (AcN/H2O; w/w) to establish a baseline. The baseline value was always about 0.010. When a sample was loaded we conducted an isocratic elution with 18% AcN for 45 min. This step removed all non-polar light fractions. We then applied a gradient elution (18 to 82% AcN) for 70 min. LCOs begin to appear at 84 to 86 min of HPLC run time. We used B. japonicum Nod factor (BjV (C18:1, MeFuc)) obtained from G. Stacey (University of Tennessee, Knoxville, Tenn.) as a standard. The identity of the LCO was confirmed by the Complex Carbohydrate Research Center at the University of Georgia with FAB-MS and MALDI-TOF spectrometry analysis.
There were two experiments conducted. In the first the treatments consisted of factorial combinations of two concentrations (0 and 20 μM) of two signal materials (JA and genistein (zhang and Smith, 1995)). The experiment was organized following a randomized complete block design with three blocks. In experiment 1, two temperatures were used (17 and 25° C.). The LCO was extracted 10 h after the addition of the signal compounds. Experiment 2 was generally like experiment one except that only one temperature, 17° C. was used and LCO was extracted at 5, 10, 20 hour after JA and genistein were added.
(§3) Each of the above experiments was conducted two times and the experimental results were pooled and analyzed statistically by analysis of variance using the Statistical Analysis System computer package (SAS Institute Inc. 1980). […] Since the effects of temperature on growth were very large, the data from two temperatures used in the first experiment were analyzed separately.

[2] = tested on: B. japonicum USDA 110; design: key: **: differences at the 0.05 probability level; NS: not significant at P < 0.11; settings: 25° C.; analysis of variance; factor levels 0 and 20 μM
Protocol: as §1
as §2, with “The resulting light brown material was dissolved in 4 ml of 18% acetonitrile and stored in the dark at 4° C. in a glass tube sealed with parafilm.” left out
as §3

[3] = tested on: B. japonicum USDA 110; design: key: **, NS indicates differences at the 0.05 probability level; **, NS indicates differences at the 0.05 probability level; settings: 20 hour; 17° C.; factor levels 0 and 20 μM
Protocol: as §1
as §2, with “The resulting light brown material was dissolved in 4 ml of 18% acetonitrile and stored in the dark at 4° C. in a glass tube sealed with parafilm.” left out
as §3

Row | Compound | significance of factor effect on LCO production ([1]; 17° C., analysis of variance) | significance of factor effect on LCO production ([1]; 25° C., analysis of variance) | significance of factor effect on LCO production ([1]; 5 hour, 17° C.) | significance of factor effect on LCO production ([1]; 10 hour, 17° C.) | significance of factor effect on LCO production ([1]; 20 hour, 17° C.) | significance of factor effect on LCO production [2] | significance of factor effect on LCO production [3]
1 | O=c1c(-c2ccc(O)cc2)coc2cc(O)cc(O)c12 [GEN, 5,7,4′-trihydroxyisoflavone] | ** (differences at the 0.05 probability level) | ** (differences at the 0.05 probability level) | ** (**, NS indicates differences at the 0.05 probability level) | ** (**, NS indicates differences at the 0.05 probability level) | ** (**, NS indicates differences at the 0.05 probability level) |  | 
2 | CC/C=C\C[C@H]1C(=O)CC[C@@H]1CC(=O)O [JA, [1R-[1α,2β(Z)]]-3-oxo-2-(pentenyl)cyclopentaneacetic acid] | ** (differences at the 0.05 probability level) |  | ** (**, NS indicates differences at the 0.05 probability level) | ** (**, NS indicates differences at the 0.05 probability level) |  | NS | NS
